One substance from publication PMC3774798 (PLoS ONE, 2013) can be followed below.

In series [1] the test system is Nc1nc2c(ncn2[C@@H]2O[C@@H]3CO[P@](=O)(O)O[C@H]4[C@@H](O)[C@H](n5cnc6c(=O)[nH]c(N)nc65)O[C@@H]4CO[P@](=O)(O)O[C@H]3[C@H]2O)c(=O)[nH]1. The series is described as follows: purified protein. The note with it: protein phosphorylated with acetyl phosphate (extent unknown), 10 mM MgCl2, pH 8, 30 °C.
Series [2] deals with Nc1nc2c(ncn2[C@@H]2O[C@H](COP(=O)(O)O[C@H]3[C@@H](O)[C@H](n4cnc5c(=O)[nH]c(N)nc54)O[C@@H]3COP(=O)(O)O)[C@@H](O)[C@H]2O)c(=O)[nH]1. The series is described as follows: purified protein. The note with it: protein phosphorylated with acetyl phosphate (extent unknown), pH 8, 30 °C, Mg2+ and/or Mn2+.

As a reminder, the Km is the concentration of substrate that gives half-maximal velocity. A word on the kcat: it is the number of substrate molecules converted per active site and unit of time at saturation. On to “PA4781 (Pseudomonas aeruginosa PAO1; E314A)”, for which, in series [1], the Michaelis constant (Km) amounted to 6.8 ± 2 µM and the catalytic constant (kcat) was determined as 0.0006 s⁻¹. In series [2], the Michaelis constant (Km) amounted to 17 ± 8 µM and the turnover number (kcat) is listed as 2.0±0.3x10^-4 s^-1.
